Results on six molecules are retold here after the supplement of paper PMC12637763.

Substitutions are numbered along the chain they refer to. The list shows a part of the results. Env chains of viruses from a treatment-interruption trial, translated from the printed DNA. IC50 / IC80 of two broadly neutralizing antibodies; lower = more sensitive virus; >50 µg/ml means not reached and <0.001 µg/ml is below the lowest dose. No active / inactive call.

B1: HIV-1 Env, reservoir clone (protein)
chain: MRVKGIRRNYQHWWRGDIWRWGMMLLGMLMICSATGSLWVTVYYGVPVWKEATTTLFCASDAKAYDTEAHNVWATHACVPTDPNPQEVPLVNVTENFNMWKNNMVEQMHEDIISLWDQSLKPCVKLTPLCVTLHCTEIGTNATNNSSHNPTPTTNSSTSPTPMGEIKNCSFNVTTNRRDKVQKTYAFFYNMDIKQIAEEDNTSYILTSCNTSVITQACPKVSFEPIPIHYCAPAGFAILKCNDTNFNGTGPCKNVTTVQCTHGIKPVVSTQLLLNGSLARGEVMIRSENISNNAKIIIVQLKEPVEINCTRPNNNTRKSITIGPGRAFFGTDIIGDIRQAHCNISREKWNYTLYQISEKLRSHFVNKTIVFNQSSGGDPEIVMHSFNCGGEFFYCDTSKLFNSTWHTNSTANNTGDSSTITLPCRIKQIVNMWQEVGKAMYAPPIKGPIRCSSKITGVLLTRDGGTNNTNTTETFRPAGGDMRDNWRSELYKYKVVQIEPLGIAPTQAKRRVVQRDKRAVGIGALFLGFLGTAGSTMGAASITLTVQARNLLSGIVQQQNNLLRAIEAQQHLLQLTVWGIKQLQARVLAVESYLKDQQLLGIWGCSGKLICTTAVPWNNSWSNKSLDYIWNNMTWMEWEREIDNYTEYIYDLLEASQNQQEKNEQELLALDKWASLWSWFSITQWLWYIKLFLIIVGGLIGLRIVFAVFSIVNRVRQGYSPLSLQTLLPAQRGPDRPEGIEEEDGEQDRGRSIRLVDGFLALFWDDLRSLCLFSYHRLRDLLLIVTRIVELLGRRGWETLKYCWNLLQYWGQELKKSAVSLFNFSAIAVAEGTDRVIEVVQRIWRAIIHIPRRIRQGLEGALL
B2: HIV-1 Env, reservoir clone (protein)
chain: MKVRGTKMNWQHLWWRWGTMLLGMLMICKATEEKWVTVYYGVPVWKEATTTLFCASDAKAYEKEAHNVWATHACVPTDPSPQEVVLENVTENFNMWKNNMVEQMHEDIISLWDQSLKPCVKLTPLCVTLNCTDYTNSNSTNHTNSNSSSPTPTAGGEIKNCSFNITTNIRDKIKKEHALFYSLDVVQIDINDNTSYRLISCNTSVITQACPKTTFEPIPIYYCAPAGFAILKCNNKTFDGKGPCKNVSTVQCTHGIRPVVSTQLLLNGSLAEKEIVIRSDNFSDNTKNIIVQLKDPVVINCTRPNNNTRKGIHIGPGRAFYATGKVIGDIRQAYCNISKEEWNKTLGQIVKKLGAQFGNKTTMIFNQSSGGDPEIVTHSFNCGGEFFYCNTSALFNSTWSSNDGNGTWNKTNSTETNSTEIILQCRIKQIVNMWQEVGKAMYAPPIKGPIRCSSNITGLILTRDGGNNTGNNSETFRPAGGNMRDNWRSELYKYKIVKIEPLGIAPTKAKRRTVQREKRAVTMGAMFLGFLGAAGSTMGAASLTLTVQARQLLSGIVQQQNNLLRAIEAQQHLLQLTVWGIKQLQARVLAVERYLADQRFLGIWGCSGKLICTTTVPWNNSWSNKSLDSIWNNMTWMQWEKEIENYTGEIYNLIEQAQNQQEQNERELLELDKWASLWNWFDISNWLWYIKIFIMIVGGLIGLRIVFAVLSIVNRVRQGYSPLSLQTLLPTPRGPDRPEGIEGEGGERDRDTSIRLVDGFLALFWDDLRNLCLFSYRHLRDLLLIAARIVELLGLRGWEILKYLWNLLLYWSQELKNSAISLLDATAIAVAEGTDRIIEAVRRFCRGVLHIPRRIRQGFERALQ
B3: HIV-1 Env, reservoir clone (protein)
chain: MKVKGTRMNWQHLWRWGTLMLGLVIICNASNTNLWVTVYYGVPAWEDADTTLFCASDAKAYSTEKHNVWATHACVPTDPNPQEISLPNVTENFDMWKNNMVEQMHEDIISLWDESLKPCVKLTPLCVTLTCSDINITNSSNTTTTNGNNSMVDPEEIKNCTFNMTTEIIDKKKEEYALFYKLDIVQINNGNDSKDYRLINCNVSTIKQACPKVSFEPIPIHYCAPAGFAILKCKDKNFNGTGPCKNVSTVQCTHGIKPVVSTQLLLNGSLAEEDIVIRTKNITDNGNNIIVHLNESITINCTRPNNNTRKSIHLGQGQAFYATGAIIGDIRQAHCNVSGSQWINTIKRVAGKLKGVFSKNVTFNSSAGGDLEITTHSFNCGGEFFYCNTSNLFNSSILTSNNTNENITLPCKIRQIVRMWQTVGQAMYAPPIAGSIICTSNITGLILTRDGGSNETNGTDTFRPGGGNMKDNWRSELYKYKVVKIKPLGIAPTKARRRVVGREKRAIGVLGAALLGFLGTAGSTMGAASITLTVQVRQLLSGIVQQQSNLLRAIEAQQHLLQLTVWGIKQLQARVLAVERYLRDQQLLGIWGCSGKLICTTNVPWNASWSNKSYEEIWDNMTWIQWDREIDNYTQLIYSLIEESQNQQEKNEQDLLALDKWTSLWSWFDISNWLWYIRIFIIIVGGLIGLRIVFAVLSIVNRVRQGYSPLSLQTLLPHPPEADRPGEIEEGGGEQGRTRSIRLVNGFLALAWDDLRNLCLFLYHHLRDFILTAARTVETLGHRGWEILKYLGNLLCYWGQELQNSVISLLDTTAIAVGNWTDRFIELGQRVVRAVLHIPRRIRQRLERALL
B4: HIV-1 Env, reservoir clone (protein)
chain: B3 chain with E174K, T345M, Q803K, R845G
B5: HIV-1 Env, reservoir clone (protein)
chain: B3 chain with N138H, K172T, E174K, D195N, T345M, E455K, Q803K, S808N, R845G, L850W
B6: HIV-1 Env, reservoir clone (protein)
chain: MRVKGIRKSYQPLWVGGILLLGMLMLCSTTEQLWVTVYYGVPVWKEATTTLFCASDAKGYDTEAHNVWATHACVPTDPNPQELKLENVTENFNMWKNDMVQQMHEDIISLWDQSIKPCVKLTPLCVTLNCSGVNINNTNANTTSNNTSWREMKEEIKNCSFNHTDTRNKMRKDYALFNSLDVIQIDSSDNNTSYMLESCNTSVITQACPKISFEPIPIHYCAPAGFAILKCNDKNFNGTGPCKNVSLVQCTHGIKPVVSTQLLLNGSLAEEDIVIRSENFTNNAKTIIVQLNSSIEITCIRPNNNTRKSIHLGPGAAFYATGDIIGDIRKAYCNISKVKWENTLDKIAKKLQGQFGENKTIVFNHSSGGDPEIVHHSFNCGGEFFYCNTTKLFSWNSTGHGNNASKNSNVNITLTCRIKQIINRWQQVGRAIYAPPIRGSISCSSTITGLLLTRDGGDSNSTDNNTETFRPGGGDMRDNWRSELYKYKVVSIEPLGIAPTRARRRVVQREKRAVGMIGAMFLGFLGAAGSTMGAASVALTVQARQLLSGIVQQQNNLLRAIEAQQHMLQLTVWGIKQLQARVLAVERYLKDQQLLGIWGCSGKLICTTNVPWNISWSNRNLKDIWGNMTWMQWEREIDNYTGLIYSLLTESQTQQEQNEKELLELDKWASLWNWFDISNWLWYIKIFIMIVGGLVGLRIIFTILNVVNRVRKGYSPLSFQTRLPATRGPDRPEETEEEGGGRDRGRSETLVTGFLALIWDDLRSLCLFIYHRLRDLLLIATRSVELLGRRGWELLKYLWNLLQYWGQELRNSAVSLLNATAIAVAEGTDRIIEVAQRIGRAIIHIPRRIRQGAERALL

One experiment deals with antibody 10-1074. The experiment in a line: neutralization IC50; higher = virus less sensitive to the antibody. Here is the method:
(§1)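 Pseudovirus bearing the Env chain mixed with antibody, from 50 µg/ml in fivefold dilutions, on TZM-bl reporter cells, in duplicate.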
On to B1, for which the “neutralization IC50” value amounted to 0.001 µg/mL.

On to B2, for which the “neutralization IC50” value is 0.005 µg/mL.

In the case of B3, the “neutralization IC50” value was 0.007 µg/mL.

As for B4, the “neutralization IC50” value stood at 0.009 µg/mL.

Consider B5, for which the “neutralization IC50” value came out at 0.014 µg/mL.

Take B6: the “neutralization IC50” value worked out at 0.007 µg/mL.

For another experiment, the target named is antibody 3BNC117. The description is as above. As to the method:
as §1
Turning to B1, the “neutralization IC50” value came out at 0.023 µg/mL.

Turning to B2, the “neutralization IC50” value amounted to 0.101 µg/mL.

With B3, the “neutralization IC50” value was 0.298 µg/mL.

As to B4, the “neutralization IC50” value was 0.335 µg/mL.

For B5, the “neutralization IC50” value is 0.101 µg/mL.

On to B6, for which the “neutralization IC50” value was 0.087 µg/mL.

The next experiment has as its target antibody 10-1074. The experiment in a line: neutralization IC80; higher = virus less sensitive to the antibody. As to the method: as §1
Consider B1, for which the “neutralization IC80” value was 0.008 µg/mL.

On to B2, for which the “neutralization IC80” value came out at 0.018 µg/mL.

On to B3, for which the “neutralization IC80” value was found to be 0.036 µg/mL.

On to B4, for which the “neutralization IC80” value amounted to 0.028 µg/mL.

In the case of B5, the “neutralization IC80” value amounted to 0.043 µg/mL.

On to B6, for which the “neutralization IC80” value came to 0.021 µg/mL.

Another experiment addresses antibody 3BNC117. The description is as above. Here is the method: as §1
In the case of B1, the “neutralization IC80” value is 0.097 µg/mL.

For B2, the “neutralization IC80” value turned out to be 0.355 µg/mL.

On to B3, for which the “neutralization IC80” value stood at 1.16 µg/mL.

Turning to B4, the “neutralization IC80” value was 2.13 µg/mL.

For B5, the “neutralization IC80” value was determined as 0.437 µg/mL.

As to B6, the “neutralization IC80” value was 0.337 µg/mL.
